Reference: PubChem BioAssay AID1224833 (University of Georgia, 2016)

- Assay: 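Human genes whose knock-down alters rotavirus replication in monkey cells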 (primary screen)
- Cells: monkey MA104 kidney cells
- Reagent: siRNA pool against human genes, 50 nM
- Timing: 48 h knock-down before infection; read 24 h after infection
- Treatment: infection with rotavirus strain RV3 two days after transfection; infectious dose for this stage not given
- Detection: 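z-score of rotavirus antigen signal per well, from a fluorescent immunoassay, relative to non-targeting control wells on the same plate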
- Scale: z-score vs non-targeting control: higher = more rotavirus replication than with non-targeting control
- Hit rule: In these data the active calls have z-score vs non-targeting control at about -1 or lower, or at about 1 or higher
- Meaning of the calls: active = z-score beyond 1 either way; inactive = z-score within 1 of zero
The whole screen tested about 12,000 reagents; this is an unselected part. About 5,600 of all reagents (46%) were called active. 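Active calls cover z-scores past 1 in both directions, so they include lowered as well as raised rotavirus replication.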 Unmarked entries are inactive. No sequences are given here.

gene symbol	z-score vs non-targeting control
CORO7	1.24 (active)
LMBRD1	1.31 (active)
USP12	0.885
PRLHR	-1.02 (active)
SYNC	-0.286
PDS5A	-1.31 (active)
PSRC1	0.291
PLXDC2	-0.333
HNRNPUL2	-0.405
OR10R2	0.936
MPPED2	0.746
BAGE2	0.154
RIT1	-2.1 (active)
DOLPP1	-5.46 (active)
ATP6V1A	-1.88 (active)
ZFYVE1	0.886
NUP42	1.17 (active)
PPIL6	-2.35 (active)
HIRIP3	-0.853
ZNF32	-2.16 (active)
ABT1	1.47 (active)
ZMAT2	-1.1 (active)
ATP8A1	-1.94 (active)
RAI14	-0.635
WDR64	-0.852
OR2A4	0.343
PFN4	-0.191
ASNS	1.86 (active)
KLF10	-2.69 (active)
CYB5R4	-1.67 (active)
RPL13	-0.721
PPP1R14D	-2.03 (active)
VENTX	-1.77 (active)
SKOR2	-0.708
C9orf72	0.934
NMT2	-0.878
RTP2	0.391
AVPR1B	-0.706
EPC2	-0.944
FOXD4L1	1.3 (active)
GRSF1	0.339
DEFB105A	0.247
SUZ12	-0.566
TBCB	0.624
ZDHHC5	0.28
POLH	-0.619
SERPINA12	-0.0554
EDEM1	-1.33 (active)
TBC1D5	-0.885
FAN1	0.416
SCAPER	0.214
SPTY2D1	1.37 (active)
STRIP1	-0.921
ZNF107	-1.14 (active)
GPR62	-0.594
GCM1	0.224
FKBP2	1.45 (active)
IDS	0.827
EXD1	-0.988
MCHR2	-0.579
BCL2L15	-1.51 (active)
TMC7	-0.442
AGPAT4	-1.13 (active)
OR6Y1	-1.6 (active)
STAT2	-0.561
FOXO3	-2.1 (active)
TRAK1	0.133
ARL6IP1	0.639
SHROOM4	1.39 (active)
WASF1	-2.25 (active)
PAN3	0.676
TOX3	-0.62
HTR5A	-2.31 (active)
KRTAP5-4	0.175
SLC31A1	0.599
EPB41L5	-1.32 (active)
PSMG1	-0.442
PCDH11Y	0.627
ANKMY1	-0.136
SLU7	-1.9 (active)
IGSF5	-0.826
FTCD	-0.979
OTOS	-0.692
UNC13D	0.023
WNT4	-1.05 (active)
PAN2	-0.964
ADAM10	-0.904
PABIR3	2.68 (active)
ALOX12	-1.11 (active)
ISCA1	-2.44 (active)
OR9Q1	-1.03 (active)
SGSH	0.868
PREX2	1.02 (active)
ARMCX3	-0.958
CCL15	-1.19 (active)
LGALS8	-1.66 (active)
DYNC2LI1	3.07 (active)
ENPP1	-2.76 (active)
NIPBL	-0.205
SMPD1	0.786
CXCR5	-0.763
FCF1	0.364
ZNF12	0.797
CARHSP1	0.0323
VRTN	-1.38 (active)
STON2	3.16 (active)
HGH1	0.671
DCTPP1	1.49 (active)
IFNA4	-0.161
SIT1	2.19 (active)
ZNF518A	2.43 (active)
TP53RK	0.689
RPL7	-1.74 (active)
SUSD1	-2.98 (active)
OSTC	1.39 (active)
ADPRM	1.26 (active)
IQCH	-1.62 (active)
PARD3B	1.37 (active)
TPGS1	-0.227
SUMO4	-0.52
MAFK	1.01 (active)
SLC25A29	0.689
DCST1	0.459
SPATA13	-0.895
NKRF	-1.84 (active)
STXBP1	-0.556
RASL10B	-0.0658
ARFIP2	-0.797
CPA2	0.841
IFT22	0.19
KTI12	1.24 (active)
HOXB9	-0.721
TGS1	1.89 (active)
SPMIP6	0.242
CCDC120	1.04 (active)
TMEM64	-1.1 (active)
SLC35C1	-0.747
KRTAP5-2	0.0298
PRR22	2.48 (active)
RIN2	-1.81 (active)

21 entries already listed, sorted by “z-score vs non-targeting control”, low to high.
gene symbol	z-score vs non-targeting control
KLF10	-2.69 (active)
PPP1R14D	-2.03 (active)
ATP8A1	-1.94 (active)
VENTX	-1.77 (active)
CYB5R4	-1.67 (active)
ZMAT2	-1.1 (active)
EPC2	-0.944
NMT2	-0.878
WDR64	-0.852
RPL13	-0.721
SKOR2	-0.708
AVPR1B	-0.706
RAI14	-0.635
PFN4	-0.191
DEFB105A	0.247
GRSF1	0.339
OR2A4	0.343
RTP2	0.391
C9orf72	0.934
FOXD4L1	1.3 (active)
ASNS	1.86 (active)
